Experimental data: the supplement of paper PMC9931576
Human monoclonal antibodies against the spike receptor-binding domain (heavy:light variable regions). IC50 against pseudoviruses bearing the spike of naturally observed variants; lower = stronger; >10 µg/ml means not reached at the top dose. No active / inactive call. The stated detection limit is 0.0005 µg/ml; values near or below 0.001 µg/ml lie at the floor of the assay.

Legend:
Experiment in all cases: pseudovirus neutralization IC50; higher = weaker neutralization
[1] = target: SARS-CoV-2 Omicron BA.1 spike pseudovirus
Method: (§1)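 Single-round VSV luciferase pseudovirus mixed with antibody dilutions for 1 h and put on Huh-7 cells for about a day; IC50 from the dose curve.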

[2] = target: SARS-CoV-2 Omicron BA.2 spike pseudovirus
Method: as §1

[3] = target: SARS-CoV-2 Omicron BA.2.75 spike pseudovirus
Method: as §1

[4] = target: SARS-CoV-2 Omicron BA.5 spike pseudovirus
Method: as §1

[5] = target: SARS-CoV-2 Omicron BQ.1.1 spike pseudovirus
Method: as §1

[6] = target: SARS-CoV-2 Omicron XBB spike pseudovirus
Method: as §1

[7] = target: SARS-CoV-2 early D614G spike pseudovirus
Method: as §1

B1: BD55-852 (protein)
chain 1: QVQLVQSGAEVKKPGSSVKVSCKASGGTFSSHAITWVRQAPGHGLEWMGRIIPILGLTNYAQKFQGRVTITADKSTGTAYMELSSLRSEDTAMYYCARDWRPLMTDYEGQRPTFDCWGQGTLVTVSS
chain 2: DIVMTQTPLSLSVTPGQPASISCKSSQSLLHSDGKTYLYWYLQKPGQPPQLLIYEVFNRFSGVPDRFSGSGSGTDFTLKISRVEAEDVGVYYCMQSIQLPLLTFGGGTKVEIK
- pseudovirus neutralization IC50 [1]: > 10 µg/mL
- pseudovirus neutralization IC50 [2]: > 10 µg/mL
- pseudovirus neutralization IC50 [3]: > 10 µg/mL
- pseudovirus neutralization IC50 [4]: > 10 µg/mL
- pseudovirus neutralization IC50 [5]: > 10 µg/mL
- pseudovirus neutralization IC50 [6]: > 10 µg/mL
- pseudovirus neutralization IC50 [7]: > 10 µg/mL

B2: BD55-885 (protein)
chain 1: QVQLVQSGAEVKKPGASVRVSCKASGYPFTSFGISWVRQAPGQGLEWMGWISAISAYNGNKNYAQKFQGRVTMTTDTSTTTAYMELRSLRSDDTAVYYCARVGAYYDRSGHFTAENESFQHWGQGTLVSVSS
chain 2: QSVLTQPPSVSGAPGQRVTISCTGSSSNIGAAYDVHWYQQLPGTAPKLLIYGNSNRPSGVPDRFSGSKSGASASLAITGLQAEDEADYYCQSYDSSLSGPVVFGGGTKLTVL
- pseudovirus neutralization IC50 [1]: 3.58 µg/mL
- pseudovirus neutralization IC50 [2]: > 10 µg/mL
- pseudovirus neutralization IC50 [3]: > 10 µg/mL
- pseudovirus neutralization IC50 [4]: > 10 µg/mL
- pseudovirus neutralization IC50 [5]: > 10 µg/mL
- pseudovirus neutralization IC50 [6]: > 10 µg/mL
- pseudovirus neutralization IC50 [7]: 0.455 µg/mL

B3: BD55-868 (protein)
chain 1: QVQLVQSGAEVKKPGASVKVSCKASGYTFTNYYIHWVRQAPGQGLEWMGIINPSGGSISYAQKFQGRVTMTRDTSTSTVYMELSSLRSEDTAVYYCARDIVLIPASSSFDPWGQGTLVTVSS
chain 2: EIVLTQSPATLSLSPGERATLSCRASQSVSSYLAWYQQRPGQAPRLLIYDASNRATGIPVRFSGSGSGTDFTLTISSLEPEDFAVYYCQQRNNWPRMYTFGQGTKLEIK
- pseudovirus neutralization IC50 [1]: > 10 µg/mL
- pseudovirus neutralization IC50 [2]: > 10 µg/mL
- pseudovirus neutralization IC50 [3]: > 10 µg/mL
- pseudovirus neutralization IC50 [4]: > 10 µg/mL
- pseudovirus neutralization IC50 [5]: > 10 µg/mL
- pseudovirus neutralization IC50 [6]: > 10 µg/mL
- pseudovirus neutralization IC50 [7]: > 10 µg/mL

B4: BD55-854 (protein)
chain 1: QVQLVQSGAEVKKPGASVKVSCKVSGYTLTELSIHWVRQAPGKGLEWMGGFDHERGETIYAQKFQGRVTMTEDTSTDTAYVELSSLRSEDTAVYYCATGGITMIRGIFYWGQGTLVTVSS
chain 2: QSVLTQPPSVSGAPGQRVTISCTGSSSNIGAGYDVHWYQQLPGTAPKLLIFGYTNRPSGVPARFSDSKSGTSASLAITGLQAEDEADYYCQSYDRSLSGVVFGGGTKLTVL
- pseudovirus neutralization IC50 [1]: > 10 µg/mL
- pseudovirus neutralization IC50 [2]: > 10 µg/mL
- pseudovirus neutralization IC50 [3]: > 10 µg/mL
- pseudovirus neutralization IC50 [4]: > 10 µg/mL
- pseudovirus neutralization IC50 [5]: > 10 µg/mL
- pseudovirus neutralization IC50 [6]: > 10 µg/mL
- pseudovirus neutralization IC50 [7]: 0.001 µg/mL

B5: BD55-899 (protein)
chain 1: QVQLVQSGAEVKKPGSSVKVSCKASGGTFSSYAISWVRQAPGQGLEWMGRIIPILGIANYAQKFQGRVTITADKSTSTAYMELSSLRSEDTAVYYCARENHGGNSEDFDYWGQGTLVTVSS
chain 2: QSVLTQPPSVSGAPGQRVTISCTGSSSNIGAGYDVHWYQQLPGTAPKLLIYGNSNRPSGVPDRFSGSKSGTSASLAITGLQAEDEADYYCQSYDSSLSGSVFGGGTQLTVL
- pseudovirus neutralization IC50 [1]: > 10 µg/mL
- pseudovirus neutralization IC50 [2]: > 10 µg/mL
- pseudovirus neutralization IC50 [3]: > 10 µg/mL
- pseudovirus neutralization IC50 [4]: > 10 µg/mL
- pseudovirus neutralization IC50 [5]: > 10 µg/mL
- pseudovirus neutralization IC50 [6]: > 10 µg/mL
- pseudovirus neutralization IC50 [7]: > 10 µg/mL

B6: BD55-847 (protein)
chain 1: QVQLQESGPGLVKPSETLSLTCTVSGGSISDYYWNWIRQPPGKGLEWIGYVYYSGGTNYIPSLRSRVTISVDTSKNHFSLKLTSVTAADTAIYFCARADAGVLDGFDIWGQGTTVTVSS
chain 2: DIQVTQSPSSLSASVGDRVTITCRASQTITTYFNWYQQRPGKAPKLLIYAASSLQSGVPSRFSGSGSGTDFTLTISGLQPEDFATYYCQQSYTTPWTFGQGTKVELK
- pseudovirus neutralization IC50 [1]: > 10 µg/mL
- pseudovirus neutralization IC50 [2]: > 10 µg/mL
- pseudovirus neutralization IC50 [3]: > 10 µg/mL
- pseudovirus neutralization IC50 [4]: > 10 µg/mL
- pseudovirus neutralization IC50 [5]: > 10 µg/mL
- pseudovirus neutralization IC50 [6]: > 10 µg/mL
- pseudovirus neutralization IC50 [7]: > 10 µg/mL
